From patent publication US6313094A, “β-amino-α-hydroxycarboxylic acid derivatives and HIV protease inhibitors” (priority 1990, dated 2001)

Target: T1, chemically synthesized HIV protease (Human immunodeficiency virus type 1 group M subtype B, UniProt P12497, C555A/C583A)
T1 construct: The HIV protease was chemically synthesized; made in house; host or cells: chemical (peptide) synthesis, no expression host
Assay type: biochemical

**Q.** “Benzyloxycarbonyl-Asn-(2S,3S)-AHPBA-Pro-Ile-NH--CH2 --C6 H11 [Example 32]” was tested. Which IC50 did it give?
**A.** The IC50 was 60 nM.

**Q.** What about the Ki of the same substance?
**A.** Its Ki is 10 nM.
